Compound potency records, mixed from different reports. Data source: NIAID ChemDB in PubChem.

All rows: toxicity to cultured cells; cell line: MT-2; read-out: CC50

Blank or dashed fields: not listed here. CCn: concentration that lowers growth or viability of the cells by n%. Neighbouring rows are from separate reports.

| SMILES | method | result |
|---|---|---|
| CC#C[C@@]1(CO)C=C[C@H](n2cc(C)c(=O)[nH]c2=O)O1 | - | >100 µM |
| CC(C)CN(C[C@@H](O)[C@H](Cc1ccccc1)NC(=O)O[C@H]1CO[C@H]2OCC(F)(F)[C@H]21)S(=O)(=O)c1ccc(N)cc1 | - | 37 µM |
| Nc1ncnc2c1ncn2[C@@H]1O[C@H](CO)C[C@@H]1F | XTT | 650 µM |
| Nc1ccn([C@H]2CC[C@@H](CO)O2)c(=O)n1 | - | 10 µM |
| O=C(/C=C/c1ccc(O)c(O)c1)O[C@@H]1C[C@](OC(=O)/C=C/c2ccc(O)c(O)c2)(C(=O)O)C[C@@H](O)[C@H]1O | - | >150 µg/mL |
| COc1ccc(S(=O)(=O)N(CC(C)C)C[C@@H](O)[C@H](Cc2ccccc2)NC(=O)O[C@H]2CO[C@H]3OCC(F)(F)[C@H]32)cc1 | - | 17.5 µM |
| NC(=O)C(c1ccccc1)(c1ccccc1)[C@H]1CCCN(CCc2ccc3c(c2)CCO3)C1 | XTT | >32 µM |
| CC(C)OC(=O)[C@H](C)N[P@](=O)(OC[C@H]1O[C@@](C#N)(c2ccc3c(N)ncnn23)[C@](C)(O)[C@@H]1OC(=O)C(C)C)Oc1ccccc1 | ATP | >100 µM |
| CC(C)OC(=O)OCOP(=O)(CO[C@H](C)Cn1cnc2c(N)ncnc21)OCOC(=O)OC(C)C | - | 22 µM |
| Cc1cn([C@H]2C[C@H](N=[N+]=[N-])[C@@H](COC(=O)c3ccncc3)O2)c(=O)[nH]c1=O | sulforhodamine | 400 µM |
| Nc1ncnc2c1ncn2CCOCP(=O)(O)O | - | 160 µM |
| CC(C)CN(C[C@@H](O)[C@H](Cc1ccccc1)NC(=O)O[C@@H]1[C@@H]2CCCO[C@@H]2O[C@H]1C)S(=O)(=O)c1ccc(N)cc1 | MTT | 30.3 µM |
| Cc1cn([C@H]2C[C@H](N=[N+]=[N-])[C@@H](CO)O2)c(=O)[nH]c1=O | - | >200 µM |
| Fc1ccc(N=C2/C(=C/c3ccco3)CNC/C2=C\c2ccco2)c(F)c1 | XTT | >109 µM |
| CNC(=O)C(c1ccccc1)(c1ccccc1)[C@H]1CCCN(CCc2ccc3c(c2)CCO3)C1 | XTT | 156 µM |
| CC(C)(C)C(=O)OCOP(=O)(COCCn1cnc2c(N)ncnc21)OCOC(=O)C(C)(C)C | - | 2 µM |
| Fc1ccc(N=C2/C(=C/c3ccco3)CNC/C2=C\c2ccco2)cc1 | XTT | >115 µM |
| Nc1cc(Cl)nc(SCc2ccccc2)n1 | - | >10 µM |
| Cc1cn([C@H]2C[C@H](F)[C@@H](CO)O2)c(=S)[nH]c1=O | - | >200 µM |
| NC(=O)C(c1ccccc1)(c1ccccc1)C1CCCN(CCc2ccc3c(c2)CCO3)C1 | - | 53 µM |
| O=C(/C=C/c1ccc(O)c(O)c1)O[C@@H]1CC(O)(C(=O)O)C[C@@H](OC(=O)/C=C/c2ccc(O)c(O)c2)C1O | - | >150 µg/mL |
| CC[C@H](C)[C@H](NC(=O)C(=O)OC[C@H]1O[C@@H](n2cc(C)c(=O)[nH]c2=O)C[C@@H]1N=[N+]=[N-])C(=O)O | sulforhodamine | 450 µM |
| O=C1c2ccccc2C(=O)N1CC(O)CN1CCC(CC2C(=O)N(c3ccccc3)c3ccccc32)CC1 | - | 78 µM |
| CC(C)CN(C[C@@H](O)[C@H](Cc1ccccc1)NC(=O)O[C@H]1CCOC1)S(=O)(=O)c1ccc(N)cc1 | - | >100 µM |
| NC(=O)C(c1ccccc1)(c1ccccc1)[C@H]1CCCN(CCOCc2ccccc2)C1 | XTT | 18 µM |
| Fc1ccccc1N=C1/C(=C/c2ccco2)CNC/C1=C\c1ccco1 | XTT | >114.8 µM |
| CC(C)OC(=O)OCOP(=O)(CO[C@H](C)Cn1cnc2c(N)ncnc21)OCOC(=O)OC(C)C | XTT | >200 µM |
| CC(C)(C)NC(=O)[C@@H]1C[C@@H]2CCCC[C@@H]2CN1C[C@@H](O)[C@H](Cc1ccccc1)NC(=O)[C@H](CC(N)=O)NC(=O)c1ccc2ccccc2n1 | MTT | 11 µM |
| CC(C)(C)c1ccc(C(Cn2cccc(C(F)(F)F)c2=O)NC2Cc3ccccc3C2)cc1 | - | >15 µM |
| Cc1ccc2c(c1)C(CC1CCN(C)CC1)(CC1CCN(C)CC1)c1ccccc1-2 | - | 72 µM |
| Cc1cn([C@H]2C[C@H](N=[N+]=[N-])[C@@H](CO)O2)c(=O)[nH]c1=O | - | 100 µM |
| CC1(C)CC(NC(=O)C(=O)Nc2ccc(Cl)cc2)CC(C)(C)N1 | XTT | >0.05 µM |
| CC(C)[C@H](NC(=O)N(C)Cc1ccccn1)C(=O)N[C@@H](Cc1ccccc1)[C@H](O)[C@H](O)[C@H](Cc1ccccc1)NC(=O)[C@@H](NC(=O)N(C)Cc1ccccn1)C(C)C | - | >100 µM |
| Nc1ccn([C@H]2CC[C@@H](CO)O2)c(=O)n1 | - | 4 µM |
| Nc1nc2c(ncn2[C@H]2C=C[C@@H](CO)C2)c(=O)[nH]1 | XTT | 175 µM |
| CC(=O)O[C@H]1C[C@H](n2cc(C)c(=O)[nH]c2=O)O[C@@H]1COP(=O)(OCC(Cl)(Cl)Cl)OCC(Cl)(Cl)Cl | - | 200 µM |
| C[C@H](Cn1cnc2c(N)ncnc21)OCP(=O)(O)O | - | 440 µM |
| Nc1cccnc1N1CCN(C(=O)c2cc3ccccc3[nH]2)CC1 | - | 15 µM |
| Nc1ccn([C@H]2CC[C@@H](CO)O2)c(=O)n1 | - | >10 µM |
| O=C1N(c2ccccc2)c2ccccc2C1(CC1=CCN(CC2CC2)CC1)CC1=CCN(CC2CC2)CC1 | - | >84 µM |
| COC(=O)N[C@H](C(=O)N[C@@H](Cc1ccccc1)[C@@H](O)CN(Cc1ccc(-c2ccccn2)cc1)NC(=O)[C@@H](NC(=O)OC)C(C)(C)C)C(C)(C)C | - | 28 µM |
| Cc1cn([C@H]2C[C@H](OS(C)(=O)=O)[C@@H](COP(=O)(OCC(Cl)(Cl)Cl)OCC(Cl)(Cl)Cl)O2)c(=O)[nH]c1=O | - | >200 µM |
| CN1CCC2(CC1)C(=O)N(c1ccccc1)c1ccccc12 | - | 55 µM |
| Cc1cn([C@H]2C[C@H](N=[N+]=[N-])[C@@H](COC(=O)C(=O)N[C@@H](CC(C)C)C(=O)O)O2)c(=O)[nH]c1=O | sulforhodamine | 500 µM |
| C[C@H](Cn1cnc2c(N)ncnc21)OCP(=O)(O)O | XTT | >50 µM |
| NC(=O)C(c1ccccc1)(c1ccccc1)[C@H]1CCCN(CCc2ccc(Cl)cc2)C1 | XTT | 19 µM |
| C#C[C@@]1(CO)C=C[C@H](n2cc(C)c(=O)[nH]c2=O)O1 | - | >100 µM |
| Cc1cn([C@H]2C[C@H](N=[N+]=[N-])[C@@H](CO)O2)c(=O)[nH]c1=O | - | >22.5 µM |
| CCCc1cc(=O)oc2c3c(c4c(c12)OC(C)(C)C=C4)O[C@H](C)[C@@H](C)[C@@H]3O | - | 7.3 µM |
| CN1CC=C(CC2(CC3=CCN(C)CC3)C(=O)N(c3ccccc3)c3ccccc32)CC1 | - | >100 µM |
| O=c1[nH]cnc2c1ncn2[C@H]1CC[C@@H](CO)O1 | - | >>100 µM |

6 of the rows above, restated:

SMILES	method	result
Cc1cn([C@H]2C[C@H](N=[N+]=[N-])[C@@H](COC(=O)C(=O)N[C@@H](CC(C)C)C(=O)O)O2)c(=O)[nH]c1=O	sulforhodamine	500 µM
O=C1c2ccccc2C(=O)N1CC(O)CN1CCC(CC2C(=O)N(c3ccccc3)c3ccccc32)CC1	-	78 µM
Nc1nc2c(ncn2[C@H]2C=C[C@@H](CO)C2)c(=O)[nH]1	XTT	175 µM
Nc1ccn([C@H]2CC[C@@H](CO)O2)c(=O)n1	-	>10 µM
Cc1cn([C@H]2C[C@H](F)[C@@H](CO)O2)c(=S)[nH]c1=O	-	>200 µM
NC(=O)C(c1ccccc1)(c1ccccc1)[C@H]1CCCN(CCOCc2ccccc2)C1	XTT	18 µM